Data on six molecules can be found in paper PMC4624681 (2015).

Residue numbers refer to the chain shown, from its start. Numbers in names are those of the source.

The assay deals with Zaire GP (1–320) with a His tag (Ebolavirus, Zaire strain, UniProt Q05320 33-320). The assay is described as follows: SPR.

B1: hTIM-1 Ig V R106A (protein)
chain: VKVGGEAGPSVTLPCHYSGAVTSMCWNRGSCSLFTCQNGIVWTNGTHVTYRKDTRYKLLGDLSRRDVSLTIENTAVSDSGVYCCAVEHRGWFNDMKITVSLEIVPP
B1 returned a Kd of 392 µM.

B2: hTIM-1 Ig V R110A (protein)
chain: B1 chain with A85R, R89A
In turn, B2 returned a Kd of 49.5 µM. Against the preceding molecule, the Kd is about 7.9-fold lower.

B3: hTIM-1 Ig V N114A (protein)
chain: B1 chain with A85R, N93A
In the case of B3, the Kd came out at 45.9 µM.

B4: hTIM-1 Ig V D115A (protein)
chain: B1 chain with A85R, D94A
Regarding B4, the dissociation constant Kd is 21.3 µM.

B5: hTIM-1 Ig V R86A (protein)
chain: B1 chain with R65A, A85R
In the case of B5, binding was characterised by a dissociation constant (Kd) of 51.1 µM. This Kd is about 2.4-fold higher than that of the molecule before.

B6: hTIM-1 Ig V K117A (protein)
chain: B1 chain with A85R, K96A
Consider B6, for which binding was characterised by a dissociation constant (Kd) of 196 µM.
